# Tests used:
# [1] = biological target: encapsulin nanoparticles (SpyCatcher fused to the C-terminus of the encapsulin protomer)
# [2] = biological target: ferritin nanoparticles (SpyCatcher fused to the N-terminus of the ferritin subunit)
substance,measurement,setting,value
SpyTag fused to the N-terminus of the African swine fever virus C129R protein,conjugation efficiency,[1],87.8%
same,conjugation efficiency,[2],100%

# Reference: paper PMC12031609, “Ferritin and Encapsulin Nanoparticles as Effective Vaccine Delivery Systems: Boosting the Immunogenicity of the African Swine Fever Virus C129R Protein” (2025)
